Compound potency records, mixed from different reports. Data source: NIAID ChemDB in PubChem.

Common to all: tests in culture; species: Mycobacterium tuberculosis

An empty or dashed field is not shown. MIC bound comes from a single tested concentration. Percent inhibition refers to the dose given; in toxicity tests it is the harm to the cells. MIC50, MIC90 and the like: level of inhibition, or share of isolates inhibited. Conditions beyond the fields shown may differ between rows. ECn: concentration that inhibits the pathogen or its effect by n%.

structure | dose | strain | cells | read by | measure | value
CC[C@H]1OC(=O)[C@H](C)[C@@H](O[C@H]2C[C@@](C)(OC)[C@@H](O)[C@H](C)O2)[C@H](C)[C@@H](O[C@@H]2O[C@H](C)C[C@H](N(C)C)[C@H]2O)[C@](C)(OC)C[C@@H](C)C(=O)[C@H](C)[C@@H](O)[C@]1(C)O |  | DRUG-SUS |  |  | MBC90 | >8 µg/mL
CC1(C)[C@H]2CC[C@@H](CNCCNCCc3ccccc3F)[C@@H]1C2 |  |  |  |  | MIC | 50 µM
O=C(CC(=O)Nc1ccccc1)Nc1ccccc1 |  | H37Rv |  |  | MIC | 25 µg/mL
CC(C)NC(=O)OCCN=C1c2ccccc2C(Br)C(Br)c2ccccc21 | 12.5 µg/mL | H37Rv |  | BACTEC | inhibition | 52%
COc1ccc2c(=O)n(-c3ccc(Br)cc3)c(=O)oc2c1 |  | CNCTC MY331/88 |  |  | MIC | 32 µM
COc1ccc(CNCCNCCc2ccc(Cl)cc2Cl)c(OC)c1 |  |  |  |  | MIC | 50 µM
NC[C@H]1O[C@H](O[C@H]2[C@H](O)[C@@H](O[C@H]3O[C@H](CO)[C@@H](O)[C@H](N)[C@H]3O)[C@H](N)C[C@@H]2N)[C@H](O)[C@@H](O)[C@@H]1O |  | ATCC 35827 (kanamycin-resistant) |  |  | MIC | >128 µg/mL
COc1cc2c(cc1OC)C1CC(OC(=O)c3ccccc3)(c3nccc4cc(OC)c(OC)cc34)CCN1CC2 | 12.5 µg/mL | H37Rv |  | BACTEC | inhibition | 48%
COc1ccccc1CCNCCNC1CCCc2ccccc21 |  |  |  |  | MIC | 50 µM
COc1ccc(C(=O)CC(c2ccc(OC)c(OC)c2)c2c(O)c3ccccc3oc2=O)cc1OC |  | H37Rv |  | BACTEC | MIC bound | >12.5 µg/mL
CCOC(=O)Nc1cc(NCc2ccc(S(N)(=O)=O)cc2)c(N)c(N)n1 |  | H37Rv |  |  | EC50 | >12.5 µg/mL
CCCCC(CC)CN1CN(CC(CC)CCCC)CC(C)(NCCN[C@H](CC)CO)C1 |  |  |  |  | MIC | 25 µM
c1ccc(CCCNCCNCC(c2ccccc2)c2ccccc2)cc1 |  |  |  |  | MIC | 37.5 µM
NC(=O)c1ccccc1C(N)=O |  | H37Rv |  |  | MIC | >100 µg/mL
Cc1ccc(/C=N/Nc2ccc([N+](=O)[O-])cn2)cc1 | 12.5 µg/mL | H37Rv |  | BACTEC | inhibition | 44%
CCOC(=O)Nc1cc(NC(CC)C(O)c2ccccc2)c([N+](=O)[O-])c(N)n1 |  | H37Rv |  |  | EC50 | >12.5 µg/mL
CCC1=C2C(=O)c3ccccc3C2=C(C)S(=O)(=O)O1 | 12.5 µg/mL | H37Rv |  | BACTEC | inhibition | 0%
Oc1cc(Sc2ccccc2)c(O)cc1Sc1ccccc1 |  | H37Rv |  |  | MIC | >100 µg/mL
CCOC(=O)Cn1c(O)c(C2=c3ccccc3=NC2=O)sc1=O | 12.5 µg/mL | H37Rv |  | BACTEC | inhibition | 0%
N#Cc1ccc(-n2c(=O)oc3cc(Cl)ccc3c2=O)cc1 |  | CNCTC MY331/88 |  |  | MIC | 8 µM
CC(C)N=c1cc2n(-c3ccc(Cl)cc3)c3ccccc3nc-2cc1Nc1ccc(Cl)cc1 |  | MDR4 |  | broth dilution / resazurin | MIC | 0.5 µg/mL
CCCCCCCCCCCNCCNCc1cccc(OC)c1OC |  |  |  |  | MIC | 25 µM
CCOC(=O)Nc1cc(NNc2cc(NC(=O)OCC)nc(N)c2[N+](=O)[O-])c([N+](=O)[O-])c(N)n1 | 12.5 µg/mL | H37Rv |  |  | inhibition | 0%
COc1ccc(OC)c(N)c1 |  | H37Rv |  |  | MIC | >100 µg/mL
CC(=O)c1ccc(NC(=O)/C(Cc2ccccn2)=N/NC(=O)C[N+](C)(C)C)cc1.[Cl-] | 12.5 µg/mL | H37Rv |  | BACTEC | inhibition | 12%
Nc1ccc(S(=O)(=O)O)c(O)c1 |  | H37Rv |  |  | MIC | >100 µg/mL
Cc1ccc(NC(=O)c2cc(S(=O)(=O)N3CCNNC3=O)c(S)cc2Cl)cc1 |  | H37Rv |  | resazurin | MIC bound | >6.25 µg/mL
C[C@H]1COc2c(N3CCN(C)CC3)c(F)cc3c(=O)c(C(=O)O)cn1c23 |  | ATCC 35823 |  |  | MIC | 0.25 µg/mL
O=C(O)CCCCCCCCCCCCCCCCCc1ccc2ccccc2c1Cl |  | H37Rv |  |  | MIC | 50 µg/mL
CC(=O)Oc1ccc2c(c1)C(=O)CCCCCC(=O)O2 |  | H37Rv |  | BACTEC | MIC bound | >12.5 µg/mL
CC(NCCNCc1ccccc1F)C12CC3CC(CC(C3)C1)C2 |  |  |  |  | MIC | 50 µM
CCCCCCCCCCCNCCN[C@@H](C)C1CCCCC1 |  |  |  |  | MIC | 25 µM
Cc1ccc2nc(-c3cccc([N+](=O)[O-])c3)c(N=O)n2c1 |  | H37Rv | VERO |  | MIC | 3.27 µg/mL
CC(CCC(=O)O)CC(=O)O |  | H37Rv |  |  | MIC | >100 µg/mL
CCOC(=O)Nc1cc(NC/C(=N/O)c2ccc(Cl)cc2Cl)c([N+](=O)[O-])c(N)n1 |  | H37Rv |  |  | EC50 | <12.5 µg/mL
CO[C@H]1/C=C/O[C@@]2(C)Oc3c(C)c(O)c4c(O)c(c5c(c4c3C2=O)NC2(CCN(CC(C)C)CC2)N=5)=NC(=O)/C(C)=C\C=C\[C@H](C)[C@H](O)[C@@H](C)[C@@H](O)[C@@H](C)[C@H](OC(C)=O)[C@@H]1C |  | Strain 73 74 (D516V) |  |  | MIC | 0.25 µg/mL
NC(=O)c1cnccn1 |  | Isolate K10437 |  |  | MIC | >500 µg/mL
CCOC(=O)c1ccc(-n2c(=O)oc3cc(OC)ccc3c2=O)cc1 |  | CNCTC MY331/88 |  |  | MIC | 2 µM
O=C1NC(=O)c2cc([N+](=O)[O-])ccc21 |  | H37Rv |  |  | MIC | >100 µg/mL
O=c1oc2ccc([N+](=O)[O-])cc2c(=O)n1-c1ccc(Cl)c(Cl)c1 |  | CNCTC MY331/88 |  |  | MIC | 31 µM
COc1ccc(C2Oc3ccc(C(=O)O)cc3C(=O)C2O)cc1 |  |  |  |  | EC50 | >12.5 µg/mL
Nc1ccc(C(=O)Nc2cc(S(=O)(=O)O)cc3cc(S(=O)(=O)O)c(N)c(O)c23)cc1 |  | H37Rv |  |  | MIC | >100 µg/mL
NC1CCN(c2nc3c(cc2F)c(=O)c(C(=O)O)cn3-c2ccc(F)cc2F)C1 |  | H37Rv |  |  | MIC | 8 µg/mL
CO[C@H]1/C=C/O[C@@]2(C)Oc3c(C)c(O)c4c(=O)c(c5oc6cc(N7CCN(CC(C)C)CC7)cc(=O)c6nc5c4c3=C2O)NC(=O)/C(C)=C\C=C\[C@H](C)[C@H](O)[C@@H](C)[C@@H](O)[C@@H](C)[C@H](OC(C)=O)[C@@H]1C |  | TN3806 |  |  | MIC | >32 µg/mL
COc1ccc(C2CC(=O)c3ccc(F)cc3O2)cc1 |  |  |  |  | EC50 | >12.5 µg/mL
CO[C@H]1/C=C/O[C@@]2(C)Oc3c(C)c(O)c4c(=O)c(c5oc6cc(N7CCN(C(C)C)CC7)cc(=O)c6nc5c4c3=C2O)NC(=O)/C(C)=C\C=C\[C@H](C)[C@H](O)[C@@H](C)[C@@H](O)[C@@H](C)[C@H](OC(C)=O)[C@@H]1C |  | 3064 (rifampin-sensitive) |  |  | MBC | 0.025 µg/mL
CCCCCC1(c2ccccc2)OC(=O)NC1=O |  | H37Rv |  |  | MIC | 100 µg/mL
CCCCCCCCCCCNCCNCc1ccccc1 |  |  |  |  | MIC | 25 µM
Cc1cccc2nc3nc(Cl)c(Cl)nc3n12 | 12.5 µg/mL | H37Rv |  | BACTEC | inhibition | 9%
COc1ccc(CNCCNCCCCc2ccccc2)c(OC)c1 |  |  |  |  | MIC | 50 µM
COc1ccc(/C=C/C(=O)c2ccc(OC)cc2O)cc1 | 12.5 µg/mL |  |  |  | inhibition | 32%
CC(=O)Oc1cc(S(=O)c2ccccc2)c(OC(C)=O)cc1S(=O)c1ccccc1 |  | H37Rv |  |  | MIC | >100 µg/mL
CCOC(=O)Nc1cc(NCc2ccc(S(=O)(=O)N(CC)CC)cc2)c(N)c(N)n1 |  | H37Rv |  |  | EC50 | >12.5 µg/mL
CCCCCC(C)NCCNCc1ccccc1Sc1ccccc1CO |  |  |  |  | MIC | 50 µM
O=[N+]([O-])c1ccc(N=Nc2c(Cl)c(O)c3ccccc3c2O)nc1 |  | ETA-R |  |  | MIC | >12.5 µg/mL
Fc1cccc(CCNCCNCCCCc2ccccc2)c1 |  |  |  |  | MIC | 50 µM
COc1ccccc1C(=O)CC(=O)Nc1ccc(NC(C)=O)cc1 |  | H37Rv |  |  | MIC | >100 µg/mL
CC(=O)Oc1c(C)c2c(O)c3c1C1=C(OCOC1=C(C)C3=O)/C(C)=C/[C@@](C)(O)[C@H](O)[C@@H](C)[C@@H](O)[C@H](C(=O)O)[C@H](O)[C@H](C)C(O)[C@H](C)/C=C\C=C(/C)C(=O)N2 |  | PZA-R |  |  | MIC | 0.8 µg/mL
O=[N+]([O-])c1ccc(SCCO)cc1 |  | H37Rv |  |  | MIC | >100 µg/mL
CC[C@H]1OC(=O)[C@H](C)[C@@H](O[C@H]2C[C@@](C)(OC)[C@@H](O)[C@H](C)O2)[C@H](C)[C@@H](O[C@@H]2O[C@H](C)C[C@H](N(C)C)[C@H]2O)[C@](C)(O)C[C@@H](C)CN(C)[C@H](C)[C@@H](O)[C@]1(C)O |  | ATCC 35827 |  |  | MBC | >8 µg/mL
Cc1cc(C)c(S(=O)(=O)c2c(C)cc(C)c(N)c2C)c(C)c1N |  | H37Rv |  |  | MIC | >100 µg/mL
Cc1ccc(NC(=O)CCC(=O)O)cc1Cl | 12.5 µg/mL | H37Rv |  | BACTEC | inhibition | 0%
O=c1cc(-c2ccc(O)c(-c3c(O)cc4oc(-c5ccc(O)cc5)cc(=O)c4c3O)c2)oc2cc(O)cc(O)c12 |  |  |  |  | EC50 | >12.5 µg/mL
CCOC(=O)c1cc(I)c(N)c(I)c1 |  | H37Rv |  |  | MIC | 100 µg/mL
CO[C@H]1/C=C/O[C@@]2(C)Oc3c(C)c(O)c4c(O)c(c(/C=N/N5CCN(C/C=C/c6ccccc6)CC5)c(O)c4c3C2=O)NC(=O)/C(C)=C\C=C\[C@H](C)[C@H](O)[C@@H](C)[C@@H](O)[C@@H](C)[C@H](OC(C)=O)[C@@H]1C |  | 2227 (rifampin-resistant) |  |  | MIC | 0.1 µg/mL
CC(C)c1ccc2c(c1)CC[C@H]1[C@](C)(CNCCNCC(O)c3ccccc3)CCC[C@]21C |  |  |  |  | MIC | 12.5 µM
CC(=O)Oc1c2c(c(OC(C)=O)c3c1n(C(C)=O)c1ccccc1n3C(C)=O)n(C(C)=O)c1ccccc1n2C(C)=O |  | H37Rv |  | BACTEC | MIC bound | >12.5 µg/mL
CC1(C)[C@@H]2CC[C@H](CNCCNC[C@@H]3CC[C@H]4C[C@@H]3C4(C)C)[C@H]1C2 |  |  |  |  | MIC | 6.25 µM
COC(=O)c1cc(C(=O)O)cc([N+](=O)[O-])c1 |  | H37Rv |  |  | MIC | >100 µg/mL
O=C1CN(/N=C/c2ccc(-c3cccc(C(F)(F)F)c3)o2)C(=O)N1 | 12.5 µg/mL | H37Rv |  | BACTEC | inhibition | 28%
CC(C)=CCC/C(C)=C/CNCCNC(C)c1cccc2ccccc12 |  |  |  |  | MIC | 25 µM
Nc1ccc(-c2ccccc2O)cc1 |  | H37Rv |  |  | MIC | 25 µg/mL
CCCCCN(CCCCC)CC(=O)OCC1(C)CCCC2(C)C3CCC(C(C)C)=CC3=CCC12 |  | H37Rv |  | BACTEC | MIC bound | >12.5 µg/mL
COc1cc(CO)ccc1O |  | H37Rv |  |  | MIC | 50 µg/mL
OC[C@H]1O[C@H](OC[C@H]2O[C@H](O[C@]3(CO)O[C@H](CO)[C@@H](O)[C@@H]3O)[C@H](O)[C@@H](O)[C@@H]2O)[C@H](O)[C@@H](O)[C@H]1O |  | H37Rv |  | BACTEC | MIC bound | >12.5 µg/mL
C[C@@H]1[C@@H](NCCNCCc2ccc(Cl)cc2Cl)C[C@H]2C[C@@H]1C2(C)C |  |  |  |  | MIC | 50 µM
CCCCCCCCCCCCCCCCOCCCCCCCCCCCCCCCC |  | H37Rv |  |  | MIC | >100 µg/mL
COC(=O)[C@@]12OC[C@]34C([C@@H](O)[C@@H]1O)[C@@]1(C)CC(=O)C(O)=C(C)[C@@H]1C[C@H]3OC(=O)[C@H](OC(=O)/C=C(\C)C(C)(C)O)[C@@H]24 |  | H37Rv |  | BACTEC | MIC bound | >12.5 µg/mL
O=C(CC(Nc1ccccc1)c1ccccc1)c1ccccc1 |  | H37Rv |  |  | MIC | 100 µg/mL
CCOc1ccc2nc(NC(=O)c3c/c(=N\NC(=O)C[N+](C)(C)C)c4ccc(O)cc4o3)sc2c1.[Cl-] |  | H37Rv |  | BACTEC | MIC bound | ≤12.5 µg/mL
CC[C@H](CO)NCCNC[C@]1(C)CCC[C@]2(C)c3ccc(C(C)C)cc3CC[C@@H]12 |  |  |  |  | MIC | 50 µM